Pooled drug test results. Numbers come from NIAID ChemDB, via PubChem.

Common to all: tests in culture; agent: Herpes simplex virus 2; read-out: EC50

ECn: concentration that inhibits the pathogen or its effect by n%. Two numbers with a dash give a range or band. Rows are shuffled and stem from different studies. Blank or dashed fields: not listed here.

SMILES | cells | strain | result
Nc1nccc2c1ncn2[C@H]1C[C@H](O)[C@@H](COP(=O)(O)COC(=O)[C@@H](N)CC(=O)O)O1 | HEL | G | >100 µM
Nc1nc2c(ncn2[C@H]2O[C@@H](CO)C[C@@H]2F)c(=O)[nH]1 | VERO | - | >100 µM
O=C(O[C@@H]1Cc2c(O)cc(O)cc2O[C@@H]1c1cc(O)c(O)c(O)c1)c1cc(O)c(O)c(O)c1 | VERO | - | 2.6 µM
C[C@H](N)C(=O)OCP(=O)(OC[C@H]1O[C@@H](n2cnc3c(N)ccnc32)C[C@@H]1O)Oc1ccccc1 | HEL | G | >100 µM
COc1cc(C2c3c(cc4c(c3OC)OCO4)C[C@H]3COC(=O)[C@H]23)cc(OC)c1OC | MRC-5 | G | 0.058 µg/mL
Cc1cn([C@H]2O[C@@H](CO)C[C@H]2F)c(=O)[nH]c1=O | VERO | - | >100 µM
COc1cc([C@@H]2c3cc(O)c(O)cc3C[C@H]3COC(=O)[C@@H]32)cc(OC)c1OC | MRC-5 | G | 0.252 µg/mL
O=c1ccn([C@@H]2O[C@@H](CO)C[C@H]2F)c(=O)[nH]1 | VERO | - | >100 µM
Nc1ncnc2c1ncn2C[C@@H](CO)OCP(=O)(O)O | Primary rabbit kidney cells | - | 4 µg/mL
OC[C@H]1O[C@@H](n2cnc3c(Cl)nccc32)C[C@@H]1O | HEL | G | >100 µM
COc1ccc(-c2cc(=O)c3c(O)cc(O)cc3o2)cc1 | VERO | - | >20 µg/mL
C[C@H](N)C(=O)OCP(=O)(OC[C@H]1O[C@@H](n2cc(/C=C/Br)c(=O)[nH]c2=O)C[C@@H]1O)Oc1ccccc1 | HEL | G | >20 µM
Nc1nc(N)c2ncn([C@@H]3S[C@H](CO)[C@H](O)[C@@H]3F)c2n1 | - | - | 0.05 µg/mL
O=c1[nH]c(=O)n([C@H]2O[C@@H](CO)C[C@H]2F)cc1I | VERO | - | >100 µM
O=c1c(O)c(-c2ccc(O)c(O)c2)oc2cc(O)cc(O)c12 | VERO | - | <60 µg/mL
COC(=O)CN(CC(=O)OC)P(=O)(OC[C@H]1O[C@@H](n2cc(/C=C/Br)c(=O)[nH]c2=O)C[C@@H]1O)Oc1ccccc1 | HEL | G | >100 µM
COc1cc(C2c3cc4c(cc3C[C@H]3COC(=O)[C@H]23)OCO4)cc(OC)c1OC | MRC-5 | G | 0.011 µg/mL
Nc1ncnc2c1ncn2CCOCP(=O)(O)O | Primary rabbit kidney cells | - | 7 µg/mL
Nc1nc2c(ncn2CCC(CO)CO)c(=O)[nH]1 | - | - | 1–10 µM
Nc1ncc2ncn(CCOCP(=O)(O)O)c2n1 | Primary rabbit kidney cells | - | 10 µg/mL
Nc1nc2c(ncn2C[C@]2(CO)C[C@H]2CO)c(=O)[nH]1 | - | - | 0.1–1 µM
Cc1cn([C@@H]2C[C@@H](O)[C@H](CO)O2)c(=O)[nH]c1=O | HFF | - | >100 µM
Nc1ccn([C@@H]2C[C@@H](O)[C@H](CO)O2)c(=O)n1 | HFF | - | >100 µM
Nc1nc(=O)n([C@H]2O[C@@H](CO)C[C@H]2F)cc1F | VERO | - | >100 µM

A second listing of 2 rows from above:

SMILES	cells	strain	result
COc1cc(C2c3c(cc4c(c3OC)OCO4)C[C@H]3COC(=O)[C@H]23)cc(OC)c1OC	MRC-5	G	0.058 µg/mL
O=c1[nH]c(=O)n([C@H]2O[C@@H](CO)C[C@H]2F)cc1I	VERO	-	>100 µM